Paper PMC12242654, “Design, Synthesis, and In Vitro Evaluation of the Leishmanicidal Activity of New Aromatic Symmetrical 1,4-Disubstituted 1,2,3-Bistriazoles” (ACS Omega, 2025)

What was measured:
[1] = test system: promastigote forms of L. amazonensis; test: Leishmanicidal activity against promastigote forms of L. amazonensis (resazurin); assay type: cell-based, Leishmania amazonensis; details: for SI (murine) proma: CC50 murine macrophage / IC50 promastigote; for SI (human) proma: CC50 human fibroblasts / IC50 promastigote
Procedure: Promastigotes of L. amazonensis (MHOM/BR/71973/M2269) were grown on 24-well plates in Schneider’s Drosophila medium (Sigma, USA) supplemented with 10.0% (v/v) heat-inactivated fetal bovine serum and 1.0% penicillin (10000 UI mL^–1)/streptomycin (10.0 mg mL^–1) (Sigma, USA). Cells were harvested in the log phase, suspended in a fresh medium, counted in Neubauer’s chamber, and adjusted to a concentration of 1 × 10^6 cells mL^–1 using 24-well plates. The compounds were added to promastigote cultures (1 × 10^6 cells mL^–1) in the range of 0.10–40.00 μg mL^–1, solubilized in dimethyl sulfoxide (DMSO) (0.6%, v/v in all wells), and incubated at 25 °C. After 72 h of incubation, resazurin was used to detect cellular metabolic activity for the determination of 50.0% inhibitory growth concentration (IC50-promastigote). All tests were performed in triplicate at three different times, and amphotericin B (Sigma) was used as the reference drug.

[2] = test system: amastigote forms of L. amazonensis; test: Leishmanicidal activity against intracellular amastigote forms of L. amazonensis in murine peritoneal macrophages; assay type: cell-based, Leishmania amazonensis; details: for SI (human) ama: CC50 human fibroblasts / IC50 amastigote; for SI (murine) ama: CC50 murine macrophage / IC50 amastigote
Procedure: To evaluate the leishmanicidal activity in amastigotes, murine peritoneal macrophages were used and maintained in RPMI-1640 medium at 37 °C and 5% CO2 in 24-well plates. After 24 h, the nonadherent macrophages were removed, and these cells were infected with Leishmania (L.) amazonensis promastigotes in the stationary phase of the proliferation curve at a ratio of 10:1. The day after infection, the noninternalized parasites were removed, and the compounds to be evaluated were added at concentrations of 40, 10, 5, and 0.1 μg mL^–1 and incubated for 72 h at 37 °C and 5% CO2; they were then fixed in methanol and stained with 10% Giemsa (MERCK) for subsequent analysis by light microscopy. To assess the effect of the compounds, the number of amastigotes/macrophages and the number of infected macrophages were evaluated. The percentage of infected cells was considered to illustrate the results since these are expressed as CI50-amastigote. ,

SMILES | SI (murine) proma [1] | SI (human) proma [1] | SI (human) ama [2] | SI (murine) ama [2]
OC(Cn1cc(C(O)c2ccccc2)nn1)Cn1cc(C(O)c2ccccc2)nn1 (stereo not drawn) [compound 9, ((2-Hydroxypropane-1,3-diyl)bis(1H-1,2,3-triazole-1,4-diyl))bis(phenylmethanol)] | 2.31 | – | – | –
Cc1ccc(-c2cn(CC(O)Cn3cc(-c4ccc(C)cc4)nn3)nn2)cc1 [8c, 1,3-Bis(4-(p-tolyl)-1H-1,2,3-triazol-1-yl)propan-2-ol] | 2.43 | – | – | –
O=C(c1ccccc1)c1cn(CC(O)Cn2cc(C(=O)c3ccccc3)nn2)nn1 [compound 10, ((2-Hydroxypropane-1,3-diyl)bis(1H-1,2,3-triazole-1,4-diyl))bis(phenylmethanone)] | 8.69 | 12.87 | 8.3 | 5.61
C[C@@H]1[C@H](O)[C@@H](C)/C=C/C=C/C=C/C=C/C=C/C=C/C=C/[C@H](O[C@@H]2O[C@H](C)[C@@H](O)[C@H](N)[C@@H]2O)C[C@@H]2O[C@](O)(C[C@@H](O)C[C@@H](O)[C@H](O)CC[C@@H](O)C[C@@H](O)CC(=O)O[C@H]1C)C[C@H](O)[C@H]2C(=O)O [amph B, amphotericin B, reference compound] | 19.35 | 16.39 | 12.07 | 14.26
OC(c1ccccc1)c1cn(Cc2ccccc2)nn1 (stereo not drawn) [compound 4] | 7.51 | – | – | –
OC(Cn1cc(C(=NNc2nc3ccccc3s2)c2ccccc2)nn1)Cn1cc(C(=NNc2nc3ccccc3s2)c2ccccc2)nn1 (stereo not drawn) [12c, 1,3-Bis(4-((2-(benzo[d]thiazol-2-yl)hydrazineylidene)(phenyl)methyl)-1H-1,2,3-triazol-1-yl)propan-2-ol] | 2.66 | – | – | –
